Measurements taken from patent US20150313990A1.
“And” between values parts separate entries of the source, which are not always exact repeats. Identical values can stand only once. Like-named read-outs stand apart in the source and are kept apart here.

Columns and labels:
[1] = molecular target: native HIV-1 BaL envelope trimers on the surface of persistently infected human T cells (PM1) (HIV-1 BaL); assay: flow cytometry on PM1 cells infected with HIV-1 BaL, pre-incubated with PG9 25 µg/ml (competitor), then sCD4 (4 domains) 1 µg/ml, detection with OKT4
[2] = molecular target: native HIV-1 BaL envelope trimers on the surface of persistently infected human T cells (PM1) (HIV-1 BaL)
[3] = molecular target: native HIV-1 BaL envelope trimers on the surface of persistently infected human T cells (PM1) (HIV-1 BaL); assay: flow cytometry on PM1 cells infected with HIV-1 BaL, pre-incubated with PG9 25 µg/ml (competitor), then sCD4 (4 domains) 5 µg/ml, detection with OKT4

With “soluble CD4 (4 domains) (from UniProt P01730 26-394) (receptor)” the MFI [1] was 121, the MFI [2] was 305 and 196 and the MFI [3] was 122.
